PubChem BioAssay AID1259414 | Drosophila RNAi Screening Center, 2018

- Assay: 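Fly genes that alter Wolbachia amount inside host cells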 (primary screen)
- Cells: Drosophila JW18 cells infected with Wolbachia
- Reagent: long dsRNA against Drosophila genes, 0.25 µg dsRNA per well of a 384-well plate
- Timing: 5 days
- Treatment: cells persistently infected with Wolbachia before knock-down; no added drug
- Measured: 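Imaged fluorescence in situ signal for Wolbachia 23S rRNA per DAPI-counted host cell, given as a robust z-score within each plate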
- Scale: Wolbachia per cell robust z: higher = more Wolbachia per host cell than the plate typical
- Rule for the call: 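Hit when robust z is 1.5 or more, or -1.5 or less, in at least two of three replicates; excludes dsRNAs with several or no targets, genes not expressed in JW18 and well A1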
In all, the deposit lists about 24,000 reagents; shown is an unselected part of those that have a named target and a result. Over the whole deposit, about 1,210 (5%) got an active call. 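Inactive calls also include excluded dsRNAs with several or no targets, genes unexpressed in JW18, and well A1, regardless of score.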 A plus sign joins genes that one reagent is predicted to hit.

gene	amplicon	Wolbachia per cell robust z, rep 1	Wolbachia per cell robust z, rep 2	Wolbachia per cell robust z, rep 3	call
LanA	DRSC11207	-0.82	-7.83	-2.88	active
LanA	DRSC40744	0.553	0.369	-0.612	inactive
CG9014	DRSC01979	0.0862	1.61	0.844	inactive
hoe2	DRSC00459	-1.23	-2.48	0.391	inactive
CG12863	DRSC06203	-0.0882	0.36	-1.17	inactive
SP555 + CG14042	DRSC03428	0.217	0.175	-0.511	inactive
Pdxk	DRSC10419	-3.37	-0.646	0.699	inactive
CG17027	DRSC10238	0.21	1.14	0.378	inactive
CG17027	DRSC25560	-1.31	-1.57	0.401	inactive
CG3862	DRSC00631	0.138	-1.21	-0.671	inactive
CG3862	DRSC28505	0.265	-0.33	-0.00208	inactive
Lsm12a	DRSC19702	1.05	-2.63	0.62	inactive
E(spl)mgamma-HLH	DRSC16699	1.16	0.849	-3.55	inactive
E(spl)mgamma-HLH	DRSC25532	0.276	0.283	-0.0816	inactive
CG33285	DRSC11463	-0.683	-1.56	-0.29	inactive
CG33285	DRSC26954	-1.01	0.454	0.19	inactive
CG34305	DRSC38830	-0.387	0.627	-0.181	inactive
CG17168	DRSC20904	0.743	-0.793	0.511	inactive
CG17168	DRSC29872	0.0214	0.642	0.567	inactive
Act5C	DRSC17723	1.83	3.1	2.33	active
Act5C	DRSC25024	1.96	1.89	1.4	active
CG7139	DRSC11611	1.36	-5.25	-0.00185	inactive
CG7139	DRSC24579	0.378	1.7	0.41	inactive
CG42766	DRSC41425	0.657	-0.565	-1.43	inactive
CG13113	DRSC02211	-0.677	-0.508	-7.15	inactive
CG13113	DRSC41524	-0.572	-1.16	-1.22	inactive
CG17826	DRSC10289	-2.02	-1.13	-1.86	inactive
CG17826	DRSC28654	-0.437	-0.302	-1.08	inactive
CG17826	DRSC39050	-1.23	-1.34	-0.973	inactive
CG9945	DRSC07347	-1.26	-0.603	-3.21	inactive
CG9945	DRSC28885	-0.306	0.464	-0.713	inactive
Grip	DRSC18395	0.461	-1.09	0.303	inactive
Grip	DRSC26610	-0.0812	1.28	1.05	inactive
CG32814	DRSC17670	0.468	0.0295	-0.284	inactive
CG32814	DRSC26042	0.00119	0.0678	0.301	inactive
ppk30	DRSC15302	-1.37	0.697	0.0674	inactive

Laid out differently: 6 of the entries above.
| gene | amplicon | Wolbachia per cell robust z, rep 1 | Wolbachia per cell robust z, rep 2 | Wolbachia per cell robust z, rep 3 | call |
| --- | --- | --- | --- | --- | --- |
| CG17027 | DRSC25560 | -1.31 | -1.57 | 0.401 | inactive |
| CG3862 | DRSC00631 | 0.138 | -1.21 | -0.671 | inactive |
| CG3862 | DRSC28505 | 0.265 | -0.33 | -0.00208 | inactive |
| Lsm12a | DRSC19702 | 1.05 | -2.63 | 0.62 | inactive |
| E(spl)mgamma-HLH | DRSC16699 | 1.16 | 0.849 | -3.55 | inactive |
| E(spl)mgamma-HLH | DRSC25532 | 0.276 | 0.283 | -0.0816 | inactive |

The list goes on.
gene	amplicon	Wolbachia per cell robust z, rep 1	Wolbachia per cell robust z, rep 2	Wolbachia per cell robust z, rep 3	call
yrt	DRSC16559	0.0924	0.0434	-0.0582	inactive
CG42638 + Trpml	DRSC11032	-2.29	0.0186	-0.0155	inactive
CG7601	DRSC14131	0.998	0.0131	-0.103	inactive
CG17786	DRSC15270	-0.271	0.11	-1.39	inactive
CG17786	DRSC25378	-0.684	-0.411	1.43	inactive
ord	DRSC04706	-0.702	-0.317	-0.194	inactive
CG34256	DRSC38833	-0.604	0.676	0.543	inactive
His2A:CG33835 + sncRNA:430f + sncRNA:430a + 37 more	DRSC21264	0.23	1.65	0.707	inactive
CG12310	DRSC09878	0.5	0.0995	1.03	inactive
CG12310	DRSC25358	-1.34	-8.83	0.24	inactive
CG8321	DRSC07148	-8.19	-0.992	1.1	inactive
IntS3	DRSC21215	1.07	0.605	1.04	inactive
slgA	DRSC20586	-0.208	-0.296	0.0802	inactive
slgA	DRSC27543	-0.0601	-0.276	-0.154	inactive
CG10357	DRSC08155	-0.473	0.618	-4.55	inactive
Prtl99C	DRSC15049	0.468	1.09	1	inactive
CG9799	DRSC16567	-0.452	0.254	0.161	inactive
CG42675	DRSC12157	-2.5	-6.27	-0.829	inactive
CG42675	DRSC21868	-2.85	-1.45	-0.603	inactive
CG42675	DRSC24431	2.25	1.59	0.412	inactive
CG42675	DRSC26577	-0.959	-0.917	0.163	inactive
CG7914	DRSC20068	0.471	-1.2	0.367	inactive
CG7914	DRSC28931	0.666	0.268	0.844	inactive
CG4752	DRSC04486	0.729	-1.2	0.491	inactive
CG4752	DRSC27141	1.31	0.401	0.874	inactive
CG9018	DRSC08618	0.411	-0.926	0.593	inactive
CG3225	DRSC00578	0.0132	1.38	0.742	inactive
CG3225	DRSC30078	0.661	2.19	0.261	inactive
CG7120	DRSC10773	0.347	0.751	1.58	inactive
CG31769	DRSC01361	-0.00455	-1.29	-9.58	inactive
phol	DRSC10367	-1.15	0.135	0.687	inactive
phol	DRSC23852	-0.246	-0.366	0.278	inactive
